Share of PSTVd loop 15 variants by leaf site

Reference: Wu et al. 2024, doi:10.1371/journal.ppat.1012142.

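A pool of all variants was put on leaves of three Nicotiana benthamiana plants. Samples came from the inoculated region at 5 days, the leaf margin at 10 and upper systemic leaves at 12.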

PSTVd intermediate strain, loop 15: wild type GGAAACCGCUACUAC, pool pattern GGAAACCGNNNNNNC; upper and lower strand joined, each 5' to 3', the first 7 letters being the upper strand, closing pairs included.

Numbers give reads per thousand; 0 = not seen among the reads, higher = more abundant.
Each site shows the three plants.
"Pool" is the share in the plasmid pool used as inoculum, on the same scale.
The inoculated region was read from the minus strand, the other sites from the plus strand.
Sequences that differ at fixed positions probably stem from PCR or sequencing errors, and defective variants can be carried along by functional ones.
For reference, wild type rose from 33.9 per thousand in the pool to 202, 200, 159 (inoculated region), 724, 746, 710 (leaf margin) and 856, 883, 880 (systemic leaves).
With 43,870-66,106 reads a sample, very low values are single reads.

| sequence | pool | inoculated region | leaf margin | systemic leaves |
|---|---|---|---|---|
| GGAAACCGGUGCCUC | 0.304 | 0.0491 / 0.0643 / 0.0952 | 0 / 0 / 0.0200 | 0 / 0 / 0 |
| GGAAACCGGUGCGAC | 0.288 | 0.0328 / 0.129 / 0.0762 | 0 / 0 / 0.0200 | 0.0161 / 0 / 0 |
| GGAAACCGGUGCGCC | 0.192 | 0.0328 / 0.112 / 0.133 | 0.0162 / 0.0445 / 0 | 0 / 0 / 0 |
| GGAAACCGGUGCGGC | 0.288 | 0.0819 / 0.129 / 0.0952 | 0 / 0 / 0 | 0 / 0 / 0 |
| GGAAACCGGUGCGUC | 0.224 | 0.147 / 0.0964 / 0.133 | 0 / 0 / 0.0401 | 0 / 0 / 0 |
| GGAAACCGGUGCUAC | 0.160 | 0.0819 / 0.0803 / 0.0571 | 0 / 0 / 0.0401 | 0 / 0 / 0 |
| GGAAACCGGUGCUCC | 0.352 | 0.0328 / 0.0482 / 0.0571 | 0.0162 / 0.0445 / 0 | 0 / 0 / 0 |
| GGAAACCGGUGCUGC | 0.240 | 0.115 / 0.0803 / 0.133 | 0.0162 / 0 / 0.0601 | 0.0161 / 0 / 0 |
| GGAAACCGGUGCUUC | 0.160 | 0.0819 / 0.0803 / 0.0571 | 0.0162 / 0 / 0 | 0 / 0 / 0 |
| GGAAACCGGUGGAAC | 0.176 | 0.0819 / 0.0482 / 0.0571 | 0 / 0.0223 / 0 | 0 / 0 / 0 |
| GGAAACCGGUGGACC | 0.240 | 0.131 / 0.0803 / 0.133 | 0 / 0 / 0.0200 | 0 / 0 / 0 |
| GGAAACCGGUGGAGC | 0.272 | 0.0819 / 0.0803 / 0.0571 | 0.0323 / 0.0223 / 0.0401 | 0 / 0 / 0 |
| GGAAACCGGUGGAUC | 0.176 | 0.147 / 0.112 / 0.0571 | 0.0323 / 0.0223 / 0.0401 | 0 / 0 / 0 |
| GGAAACCGGUGGCAC | 0.240 | 0.0655 / 0.0803 / 0.114 | 0 / 0 / 0 | 0 / 0 / 0 |
| GGAAACCGGUGGCCC | 0.240 | 0.131 / 0.0964 / 0.0952 | 0 / 0 / 0.0200 | 0.0161 / 0 / 0 |
| GGAAACCGGUGGCGC | 0.208 | 0.0491 / 0.0803 / 0.152 | 0 / 0 / 0 | 0 / 0 / 0.0228 |
| GGAAACCGGUGGCUC | 0.224 | 0.0983 / 0.0964 / 0.0571 | 0 / 0 / 0 | 0.0161 / 0 / 0 |
| GGAAACCGGUGGGAC | 0.208 | 0.0491 / 0.0643 / 0.0190 | 0 / 0 / 0 | 0 / 0 / 0.0228 |
| GGAAACCGGUGGGCC | 0.192 | 0.0655 / 0.129 / 0.152 | 0 / 0 / 0.0401 | 0 / 0 / 0 |
| GGAAACCGGUGGGGC | 0.192 | 0.0819 / 0.129 / 0.0952 | 0 / 0 / 0.0601 | 0 / 0 / 0 |
| GGAAACCGGUGGGUC | 0.240 | 0.0655 / 0.145 / 0.114 | 0.0323 / 0 / 0.0401 | 0 / 0 / 0 |
| GGAAACCGGUGGUAC | 0.240 | 0.311 / 0.209 / 0.400 | 0.162 / 0.0668 / 0.140 | 0.0644 / 0.0303 / 0.0228 |
| GGAAACCGGUGGUCC | 0.240 | 0.0819 / 0.0643 / 0.0571 | 0 / 0 / 0 | 0.0322 / 0 / 0 |
| GGAAACCGGUGGUGC | 0.256 | 0.0655 / 0.0482 / 0.0952 | 0.0323 / 0 / 0.0200 | 0.0161 / 0 / 0 |
| GGAAACCGGUGGUUC | 0.224 | 0.262 / 0.209 / 0.248 | 0.129 / 0.0891 / 0.100 | 0.0483 / 0 / 0 |
| GGAAACCGGUGUAAC | 0.224 | 0.0328 / 0.0321 / 0.0571 | 0 / 0 / 0.0401 | 0 / 0 / 0 |
| GGAAACCGGUGUACC | 0.160 | 0.0655 / 0.177 / 0.152 | 0 / 0.0445 / 0 | 0 / 0 / 0 |
| GGAAACCGGUGUAGC | 0.272 | 0 / 0.112 / 0.0381 | 0 / 0 / 0.0200 | 0 / 0 / 0 |
| GGAAACCGGUGUAUC | 0.160 | 0.0491 / 0.112 / 0.0952 | 0.0162 / 0 / 0 | 0 / 0 / 0 |
| GGAAACCGGUGUCAC | 0.256 | 0.115 / 0.0643 / 0.114 | 0 / 0 / 0.0200 | 0.0161 / 0 / 0 |
| GGAAACCGGUGUCCC | 0.288 | 0.0819 / 0.0803 / 0.0571 | 0.0162 / 0.0223 / 0.0200 | 0 / 0 / 0 |
| GGAAACCGGUGUCGC | 0.176 | 0.0983 / 0.0803 / 0.152 | 0.0162 / 0 / 0 | 0 / 0 / 0 |
| GGAAACCGGUGUCUC | 0.224 | 0.0819 / 0.0803 / 0.0762 | 0 / 0 / 0.0200 | 0 / 0 / 0 |
| GGAAACCGGUGUGAC | 0.304 | 0.0983 / 0.129 / 0.0952 | 0 / 0 / 0 | 0 / 0 / 0 |
| GGAAACCGGUGUGCC | 0.176 | 0.0655 / 0.0643 / 0.171 | 0.0162 / 0 / 0 | 0 / 0 / 0 |
| GGAAACCGGUGUGGC | 0.208 | 0.0819 / 0.0964 / 0.133 | 0.0162 / 0.0223 / 0 | 0 / 0 / 0 |
| GGAAACCGGUGUGUC | 0.176 | 0.0164 / 0.0803 / 0.0381 | 0.0162 / 0.0223 / 0 | 0 / 0 / 0 |
| GGAAACCGGUGUUAC | 0.192 | 0.0491 / 0.129 / 0.0381 | 0 / 0 / 0.0200 | 0 / 0 / 0 |
| GGAAACCGGUGUUCC | 0.240 | 0.0491 / 0.0803 / 0.0381 | 0 / 0 / 0.0200 | 0 / 0 / 0 |
| GGAAACCGGUGUUGC | 0.224 | 0.0819 / 0.0643 / 0.0952 | 0 / 0 / 0.0401 | 0 / 0 / 0 |
| GGAAACCGGUGUUUC | 0.192 | 0.0491 / 0.112 / 0.0952 | 0 / 0.0223 / 0.0200 | 0.0161 / 0 / 0 |
| GGAAACCGGUUAAAC | 0.176 | 0.131 / 0.0321 / 0.0952 | 0.0162 / 0.0223 / 0.0401 | 0 / 0 / 0 |
| GGAAACCGGUUAACC | 0.320 | 0.147 / 0.112 / 0.133 | 0 / 0 / 0.0200 | 0 / 0 / 0 |
| GGAAACCGGUUAAGC | 0.288 | 0.115 / 0.177 / 0.133 | 0 / 0 / 0.0200 | 0 / 0 / 0 |
| GGAAACCGGUUAAUC | 0.208 | 0.197 / 0.273 / 0.0952 | 0 / 0 / 0.0200 | 0.0161 / 0.0151 / 0 |
| GGAAACCGGUUACAC | 0.224 | 0.197 / 0.145 / 0.0952 | 0 / 0 / 0.0401 | 0.0161 / 0 / 0 |
| GGAAACCGGUUACCC | 0.160 | 0.0983 / 0.0643 / 0.0762 | 0.0162 / 0 / 0 | 0 / 0 / 0 |
| GGAAACCGGUUACGC | 0.240 | 0.147 / 0.0643 / 0.152 | 0 / 0 / 0.0200 | 0 / 0 / 0 |
| GGAAACCGGUUACUC | 0.224 | 0.0164 / 0.145 / 0.0381 | 0.0162 / 0 / 0 | 0 / 0 / 0 |
| GGAAACCGGUUAGAC | 0.240 | 0.0819 / 0 / 0.0190 | 0 / 0 / 0.0401 | 0 / 0 / 0 |
| GGAAACCGGUUAGCC | 0.288 | 0.0328 / 0.177 / 0.0381 | 0 / 0 / 0.0401 | 0.0322 / 0 / 0 |
| GGAAACCGGUUAGGC | 0.336 | 0.115 / 0.0643 / 0.0952 | 0 / 0 / 0 | 0 / 0 / 0 |
| GGAAACCGGUUAGUC | 0.352 | 0.180 / 0.0321 / 0.0762 | 0.0323 / 0 / 0 | 0.0161 / 0 / 0.0456 |
| GGAAACCGGUUAUAC | 0.240 | 0.246 / 0.241 / 0.305 | 0.129 / 0.0668 / 0.100 | 0.0322 / 0.0756 / 0.0228 |
| GGAAACCGGUUAUCC | 0.336 | 0.0819 / 0.112 / 0.114 | 0 / 0.0223 / 0.0401 | 0 / 0 / 0 |
| GGAAACCGGUUAUGC | 0.224 | 0.0983 / 0.225 / 0.114 | 0 / 0.0223 / 0 | 0 / 0 / 0 |
| GGAAACCGGUUAUUC | 0.224 | 0.0983 / 0.129 / 0.114 | 0.0162 / 0 / 0.0401 | 0.0322 / 0 / 0 |
| GGAAACCGGUUCAAC | 0.304 | 0.0983 / 0.0321 / 0.0952 | 0 / 0 / 0.0200 | 0 / 0 / 0 |

3 of these entries, quoted again:

| sequence | pool | inoculated region | leaf margin | systemic leaves |
|---|---|---|---|---|
| GGAAACCGGUUACGC | 0.240 | 0.147 / 0.0643 / 0.152 | 0 / 0 / 0.0200 | 0 / 0 / 0 |
| GGAAACCGGUGGUCC | 0.240 | 0.0819 / 0.0643 / 0.0571 | 0 / 0 / 0 | 0.0322 / 0 / 0 |
| GGAAACCGGUUAUUC | 0.224 | 0.0983 / 0.129 / 0.114 | 0.0162 / 0 / 0.0401 | 0.0322 / 0 / 0 |